A mixed list of measured activities; the numbers were collected in NIAID ChemDB.

Shared fields: tests in culture; species: Hepatitis C virus; measure: EC50

a–b is a range or a potency band. ECn: concentration that inhibits the pathogen or its effect by n%. Neighbouring rows are from separate reports. Blank or dashed fields: not listed here.

smiles,read by,conditions,cell line,strain or isolate,result
C=CC1C[C@@]1(NC(=O)[C@@H]1C[C@@H](Oc2cc(-c3nc(C(C)C)cs3)nc3cc(OC)ccc23)CN1C(=O)[C@@H](NC(=O)OC(C)(C)C)C(C)(C)C)C(=O)NS(=O)(=O)C1(CCC)CC1,replicon,-,Huh7,1b,<0.05 µM
O=C(Nc1ccc(C2SC(=Nc3ccc(N4CCOCC4)cc3)N(Cc3ccccn3)C2=O)cc1)[C@H]1CCCN1S(=O)(=O)Cc1ccccc1,replicon,-,Huh7,-,1–5 µM
COC(=O)c1ccc2c(C3CCCCC3)c3n(c2c1)CC(C(=O)N1CCN(c2ccncc2)CC1)Cc1ccccc1-3,replicon,-,Huh7,-,0.01–1 µM
CCNc1nc(NCc2ccc(S(N)(=O)=O)cc2)nc2ccc(-c3ccc(F)cc3)nc12,replicon,-,-,-,<0.1 µM
CC1(C)CC(=O)C2=C(C1)Nc1c(O)cccc1N(C(=O)CCC(=O)NC1CCOC1=O)C2c1ccc(OCc2ccccc2)cc1Cl,luciferase / reporter gene / replicon,-,-,1b,>100 µM
COc1c(-c2ccc3cc(NS(C)(=O)=O)ccc3c2)cc(-n2ccc(=O)[nH]c2=O)cc1C(C)(C)C,luciferase,0% human plasma,-,genotype 1b Con1,0.0018 µM
C=C[C@H]1C[C@@]1(NC(=O)[C@@H]1C[C@@H](Oc2cc(-c3ccccc3)nc3cc(OC)ccc23)CN1C(=O)[C@@H](NC(=O)OC1CCCC1)C(C)(C)C)C(=O)NS(=O)(=O)C1(C)CC1,replicon,-,Huh7,1b,<0.05 µM
NC(=S)Nc1cccc(OCCCCCOc2ccccc2-c2ccccc2)c1,reporter gene / fluorescence,-,Ava5-EG(delta4AB)SEAP,-,0.001–1 µM
C=CC1CC1(NC(=O)[C@@H]1C[C@@H](Oc2cc(-c3ccccc3)nc3cc(OC)ccc23)CN1C(=O)[C@@H](NC(=O)OC(C)(C)C)C(C)(C)C)C(=O)NS(=O)(=O)C1(C(=O)Nc2c(C)noc2C)CC1,replicon,-,Huh7,1b,<0.05 µM
COC(=O)/C=C/c1ccc(NC(=O)C2(N(C)C(=O)c3ccc4c(C5CCCCC5)c5n(c4c3)CCCc3ccccc3-5)CCCC2)cc1,replicon,-,Huh7,-,1–10 µM
C=CCC1(S(=O)(=O)NC(=O)C2(NC(=O)[C@@H]3C[C@@H](Oc4cc(-c5ccccc5)nc5cc(OC)ccc45)CN3C(=O)[C@@H](NC(=O)OC(C)(C)C)C(C)(C)C)CC2)CC1,replicon,-,Huh7,1b,0.5–5 µM
CCOc1nc(NCc2c(F)cc(F)cc2F)nc2ccc(-c3ccc(F)cc3)nc12,replicon,-,-,-,<0.1 µM
C=C[C@H]1C[C@@]1(NC(=O)[C@@H]1C[C@@H](Oc2cc(-c3ccccc3)nc3cc(OC)ccc23)CN1C(=O)[C@@H](NC(=O)OC(C)(C)C)C(C)(C)C)C(=O)NS(=O)(=O)C1(Cc2c(C)noc2C)CC1,replicon,-,Huh7,1b,0.5–5 µM
O=C(OCc1ccccc1)[C@@H]1CCCN1C(=O)Nc1ccc(C2SC(=Nc3cccc(F)c3)N(Cc3ccccn3)C2=O)cc1,replicon,-,Huh7,-,<0.1 µM
CC1(C)CC(=O)C2=C(C1)Nc1c(O)cccc1N(C(=O)OCC(=O)O)C2c1ccc(OCc2ccccc2)cc1F,luciferase / reporter gene / replicon,-,-,1b,25.38 µM
Fc1ccc(-c2ccc3nc(NCC(F)(F)F)nc(O[C@H]4CCOC4)c3n2)cc1,replicon,-,-,-,<0.1 µM
COc1ccc(N=C2SC(c3ccc(NC(=O)[C@H]4CCCN4C(=O)OCc4ccccc4)cc3)C(=O)N2Cc2ccco2)cc1F,replicon,-,Huh7,-,<0.1 µM
O=C(N[C@@H](C(=O)N1CCC[C@H]1c1ncc(-c2ccc(-c3ccc(-c4cnc([C@@H]5CCCN5C(=O)[C@H](NC(=O)C5CC5)c5ccccc5)s4)cc3)cc2)s1)c1ccccc1)C1CC1,luciferase,-,Huh7.5,genotype 1b Con1,0.0000039 µM
CCOc1nc(NCc2ccc(S(N)(=O)=O)cc2)nc2ccc(-c3ccc(NC(=O)C(N)CO)cc3)nc12,replicon,-,-,-,<0.1 µM
NC(=S)Nc1cccc(OCCCCCOc2ccc(-c3ccc(Br)cc3)cc2)c1,reporter gene / fluorescence,-,Ava5-EG(delta4AB)SEAP,-,0.001–1 µM
CCOc1nc(NCc2ccc(F)cc2)nc2ccc(-c3ccc(N4CCCC4=O)cc3)nc12,replicon,-,-,-,<0.1 µM
CN(C)CCNC(=O)C1Cc2ccccc2-c2c(C3CCCCC3)c3ccc(C(=O)NS(=O)(=O)N(C)C)cc3n2C1,replicon,-,Huh7,-,0.01–1 µM
CC(=O)N1c2cccc(O)c2NC2=C(C(=O)CC(C)(C)C2)[C@@H]1c1ccc(OCc2ccccc2)cc1Cl,luciferase / reporter gene / replicon,-,-,1b,2.39 µM
COc1ccc2c(O[C@@H]3C[C@@H](C(=O)N[C@@]4(C(=O)NS(=O)(=O)C5(Cc6ccccc6)CC5)CC45CC5)N(C(=O)[C@@H](NC(=O)OC(C)(C)C)C(C)(C)C)C3)cc(-c3ccccc3)nc2c1,replicon,-,Huh7,1b,5–50 µM
CCOc1nc(N)nc2c1ncn2[C@@H]1O[C@@H]2COP(=O)(OC(C)C)O[C@H]2[C@@]1(C)F,replicon,105 d,-,2a,2.32 µM
CN(C)S(=O)(=O)NC(=O)c1ccc2c(C3CCCCC3)c3n(c2c1)CC(C(=O)N1CCOCC1)=Cc1ccccc1-3,replicon,-,Huh7,-,0.01–1 µM
C=CC1C[C@@]1(NC(=O)[C@@H]1C[C@@H](Oc2cc(-c3ccccc3)nc3cc(OC)ccc23)CN1C(=O)[C@@H](NC(=O)[C@@H](OC)c1ccccc1)C(C)(C)C)C(=O)NS(=O)(=O)C1(CC2CC2)CC1,replicon,-,Huh7,1b,0.05–0.5 µM
Cc1cc(OCc2ccccc2)ccc1C1C2=C(CC(C)(C)CC2=O)Nc2c(O)cccc2N1C(=O)C(C)C,luciferase / reporter gene / replicon,-,-,1b,1.65 µM
CCOc1nc(NCc2ccc(S(N)(=O)=O)cc2)nc2ccc(-c3ccc(NC(=O)OCCN4CCCC4)cc3)nc12,replicon,-,-,-,<0.1 µM
C=CCCCCCCCCC1(S(=O)(=O)NC(=O)[C@]2(NC(=O)[C@@H]3C[C@@H](Oc4cc(-c5ccccc5)nc5cc(OC)ccc45)CN3C(=O)[C@@H](NC(=O)OC(C)(C)C)C(C)(C)C)C[C@@H]2C=C)CC1,replicon,-,Huh7,1b,0.05–0.5 µM
COC(=O)c1ccc2c(C3CCCCC3)c3n(c2c1)CC(C(=O)N1CCOCC1)=Cc1cccnc1-3,replicon,-,Huh7,-,1–10 µM
S=C(Nc1ccc2c(c1)Cc1cc(Br)ccc1-2)Nc1cccc2ccccc12,reporter gene / fluorescence,-,Ava5-EG(delta4AB)SEAP,-,0.001–1 µM
C[C@@H](NC(=O)OCc1ccccc1)C(=O)Nc1ccc(C2SC(=Nc3ccc(N4CCOCC4)cc3)N(Cc3cccnc3)C2=O)cc1,replicon,-,Huh7,-,0.1–1 µM
S=C(NCCCc1ccccc1)Nc1ccc2c(c1)Cc1cc(Br)ccc1-2,reporter gene / fluorescence,-,Ava5-EG(delta4AB)SEAP,-,0.001–1 µM
CCOc1nc(NCc2ccc(Cl)c(F)c2)nc2ccc(-c3ccc(F)cc3)nc12,replicon,-,-,-,<0.1 µM
C[C@@H](NC(=O)CCc1ccccc1)C(=O)Nc1ccc(C2SC(=Nc3cccc(F)c3)N(Cc3ccco3)C2=O)cc1,replicon,-,Huh7,-,1–5 µM
NC(=S)Nc1cccc(OCCCCCCc2cccc3ccccc23)c1,reporter gene / fluorescence,-,Ava5-EG(delta4AB)SEAP,-,0.001–1 µM
CN(C)CCCNC(=O)CCC(=O)N1c2cccc(O)c2NC2=C(C(=O)CC(C)(C)C2)C1c1ccc(OCc2ccccc2)cc1Cl,luciferase / reporter gene / replicon,-,-,1b,38.38 µM
N#CC1C(=O)Cn2c(c(C3CCCCC3)c3ccc(C(=O)O)cc32)-c2ccccc21,replicon,-,Huh7,-,>10 µM
CCOc1nc(NCc2ccc(F)cc2)nc2ccc(-c3ccc(NC(=O)[C@@H]4C[C@@H](O)CN4)cc3)nc12,replicon,-,-,-,<0.1 µM
O=C(O)c1ccc2c(C3CCCCC3)c3n(c2c1)CCNc1ccccc1-3,replicon,-,Huh7,-,1–10 µM
C=C[C@H]1C[C@@]1(NC(=O)[C@@H]1C[C@@H](Oc2cc(-c3ccccc3)nc3cc(OC)ccc23)CN1C(=O)[C@@H](NC(=O)OCC1CCOCC1)C(C)(C)C)C(=O)NS(=O)(=O)C1(Cc2ccccc2)CC1,replicon,-,Huh7,1b,0.05–0.5 µM
CCOc1nc(N)nc2ccc(-c3ccc(C(=O)Nc4ccccc4)cc3)nc12,replicon,-,Huh7,-,>1 µM
CN(Cc1ccccc1)S(=O)(=O)NC(=O)c1ccc2c(C3CCCCC3)c3n(c2c1)CC(=O)Nc1ccccc1-3,replicon,-,Huh7,-,0.01–1 µM

The first 4 rows once more:

| smiles | read by | conditions | cell line | strain or isolate | result |
|---|---|---|---|---|---|
| C=CC1C[C@@]1(NC(=O)[C@@H]1C[C@@H](Oc2cc(-c3nc(C(C)C)cs3)nc3cc(OC)ccc23)CN1C(=O)[C@@H](NC(=O)OC(C)(C)C)C(C)(C)C)C(=O)NS(=O)(=O)C1(CCC)CC1 | replicon | - | Huh7 | 1b | <0.05 µM |
| O=C(Nc1ccc(C2SC(=Nc3ccc(N4CCOCC4)cc3)N(Cc3ccccn3)C2=O)cc1)[C@H]1CCCN1S(=O)(=O)Cc1ccccc1 | replicon | - | Huh7 | - | 1–5 µM |
| COC(=O)c1ccc2c(C3CCCCC3)c3n(c2c1)CC(C(=O)N1CCN(c2ccncc2)CC1)Cc1ccccc1-3 | replicon | - | Huh7 | - | 0.01–1 µM |
| CCNc1nc(NCc2ccc(S(N)(=O)=O)cc2)nc2ccc(-c3ccc(F)cc3)nc12 | replicon | - | - | - | <0.1 µM |